Laboratory results published in patent US20240309012A1, “ISOQUINOLINE COMPOUND, MANUFACTURING METHOD THEREFOR, AND APPLICATION THEREOF” (priority 2020, published 2024).

System: 2019 novel coronavirus (SARS-CoV-2)
Assay: Inhibition of 2019 novel coronavirus (SARS-CoV-2) replication in Vero E6 cells, virus copy number by qRT-PCR
Assay type: cell-based
Conditions: for Therapeutic index SI: CC50/EC50, Vero E6 cells; for SI Ratio (SI ratio of each compound to berbamine hydrochloride): relative to berbamine hydrochloride

Row | Compound | Therapeutic index SI | SI Ratio (SI ratio of each compound to berbamine hydrochloride)
1 | COc1cc2c3cc1Oc1c(OC)c(OC)cc4c1[C@@H](Cc1ccc(C#N)c(c1)Oc1ccc(cc1)C[C@@H]3N(C)CC2)N(C)CC4 [Compound 1] | 36.56 | 17.75
2 | COc1cc2c3cc1Oc1c(OC)c(OC)cc4c1[C@@H](Cc1ccc(C=O)c(c1)Oc1ccc(cc1)C[C@@H]3N(C)CC2)N(C)CC4 [Compound 2] | 85.71 | 41.61
3 | COc1cc2c3cc1Oc1c(OC)c(OC)cc4c1[C@@H](Cc1ccc(CO)c(c1)Oc1ccc(cc1)C[C@@H]3N(C)CC2)N(C)CC4 [Compound 3] | 62.99 | 30.58
4 | CCCCNC(=O)Oc1ccc2cc1Oc1ccc(cc1)C[C@H]1c3cc(c(OC)cc3CCN1C)Oc1c(OC)c(OC)cc3c1[C@@H](C2)N(C)CC3 [Compound 4] | 33.47 | 16.25
5 | COc1cc2c3cc1Oc1c(OC)c(OC)cc4c1[C@@H](Cc1ccc(OC(=O)CCCC[C@H]5CCSS5)c(c1)Oc1ccc(cc1)C[C@@H]3N(C)CC2)N(C)CC4 [Compound 5] | 114.80 | 55.73
6 | COC(=O)c1ccc2cc1Oc1ccc(cc1)C[C@H]1c3cc(c(OC)cc3CCN1C)Oc1c(OC)c(OC)cc3c1[C@@H](C2)N(C)CC3 [Compound 8] | 87.22 | 42.34
7 | COc1cc2c3cc1Oc1c(OC)c(OC)cc4c1[C@@H](Cc1ccc(C(N)=O)c(c1)Oc1ccc(cc1)C[C@@H]3N(C)CC2)N(C)CC4 [Compound 9] | 114.91 | 55.78
8 | COc1cc2c3cc1Oc1c(OC)c(OC)cc4c1[C@@H](Cc1cc(c5oc(=O)[nH]c5c1)Oc1ccc(cc1)C[C@@H]3N(C)CC2)N(C)CC4 [Compound 18] | 16.33 | 7.92
9 | COc1cc2c3cc1Oc1c(OC)c(OC)cc4c1[C@@H](Cc1ccc(C(C)=O)c(c1)Oc1ccc(cc1)C[C@@H]3N(C)CC2)N(C)CC4 [Compound 25] | >14.7 | >7.14
10 | COc1cc2c3cc1Oc1c(OC)c(OC)cc4c1[C@@H](Cc1ccc(C(=O)NC5CCCC5)c(c1)Oc1ccc(cc1)C[C@@H]3N(C)CC2)N(C)CC4 [Compound 28] | 9.38 | 4.55
11 | COc1cc2c3cc1Oc1c(OC)c(OC)cc4c1[C@@H](Cc1cc(cc([N+](=O)[O-])c1)Oc1ccc(cc1)C[C@@H]3N(C)CC2)N(C)CC4 [Compound 33] | 38.57 | 18.72
12 | COc1cc2c3cc1Oc1c(OC)c(OC)cc4c1[C@@H](Cc1cccc(c1)Oc1ccc(cc1)C[C@@H]3N(C)CC2)N(C)CC4 [Compound 39] | 18.39 | 8.93
13 | C=C(C)c1ccc2cc1Oc1ccc(cc1)C[C@H]1c3cc(c(OC)cc3CCN1C)Oc1c(OC)c(OC)cc3c1[C@@H](C2)N(C)CC3 [Compound 40] | 12.31 | 5.98
14 | COc1cc2c3cc1Oc1c(OC)c(OC)cc4c1[C@@H](Cc1ccc(C)c(c1)Oc1ccc(cc1)C[C@@H]3N(C)CC2)N(C)CC4 [Compound 41] | 4.16 | 2.02
15 | C=CC(=O)Nc1ccc2cc1Oc1ccc(cc1)C[C@H]1c3cc(c(OC)cc3CCN1C)Oc1c(OC)c(OC)cc3c1[C@@H](C2)N(C)CC3 [Compound 42] | >15.55 | >7.55
16 | CCCCCNC(=O)c1ccc2cc1Oc1ccc(cc1)C[C@H]1c3cc(c(OC)cc3CCN1C)Oc1c(OC)c(OC)cc3c1[C@@H](C2)N(C)CC3 [Compound 43] | 4.97 | 2.41

Row | Compound | Therapeutic index SI | SI Ratio (SI ratio of each compound to berbamine hydrochloride)
17 | COc1cc2c3cc1Oc1c(OC)c(OC)cc4c1[C@@H](Cc1ccc(C5CC5)c(c1)Oc1ccc(cc1)C[C@@H]3N(C)CC2)N(C)CC4 [Compound 44] | 4.80 | 2.33
18 | COc1cc2c3cc1Oc1c(OC)c(OC)cc4c1[C@@H](Cc1ccc(C(C)O)c(c1)Oc1ccc(cc1)C[C@@H]3N(C)CC2)N(C)CC4 (some centres unmarked) [Compound 46] | 29.12 | 14.13
19 | COc1cc2c3cc1Oc1c(OC)c(OC)cc4c1[C@@H](Cc1ccc(C(=O)N5CCCCC5)c(c1)Oc1ccc(cc1)C[C@@H]3N(C)CC2)N(C)CC4 [Compound 47] | >12.30 | >5.97
20 | COc1cc2c3cc1Oc1c(OC)c(OC)cc4c1[C@@H](Cc1ccc(C(=O)NC5CC5)c(c1)Oc1ccc(cc1)C[C@@H]3N(C)CC2)N(C)CC4 [Compound 49] | >31.15 | >15.12
21 | COc1cc2c3cc1Oc1c(OC)c(OC)cc4c1[C@@H](Cc1ccc(C(=O)Nc5ccccc5)c(c1)Oc1ccc(cc1)C[C@@H]3N(C)CC2)N(C)CC4 [Compound 51] | >5.10 | >2.48
22 | CCCCNC(=O)Oc1c(OC)cc2c3c1Oc1cc4c(cc1OC)CCN(C)[C@H]4Cc1ccc(cc1)Oc1cc(ccc1OC)C[C@H]3N(C)CC2 [Compound 53] | >11.10 | >5.38
23 | COc1cc2c3cc1Oc1c(OC)c(OC)cc4c1[C@@H](Cc1ccc(C(=O)Nc5ccc(C(F)(F)F)cc5)c(c1)Oc1ccc(cc1)C[C@@H]3N(C)CC2)N(C)CC4 [Compound 54] | >5.25 | >2.55
24 | COc1cc2c3cc1Oc1c(OC)c(OC)cc4c1[C@@H](Cc1ccc(C(=O)NC(C)C)c(c1)Oc1ccc(cc1)C[C@@H]3N(C)CC2)N(C)CC4 [Compound 55] | >16 | >7.77
25 | COc1cc2c3cc1Oc1c(OC)c(OC)cc4c1[C@@H](Cc1ccc(C(=O)NC5CCC5)c(c1)Oc1ccc(cc1)C[C@@H]3N(C)CC2)N(C)CC4 [Compound 57] | >16.95 | >8.23
26 | COc1cc2c3cc1Oc1c(OC)c(OC)cc4c1[C@@H](Cc1ccc(C(=O)Nc5cccnc5)c(c1)Oc1ccc(cc1)C[C@@H]3N(C)CC2)N(C)CC4 [Compound 58] | >13.2 | >6.41
27 | COc1ccc(NC(=O)c2ccc3cc2Oc2ccc(cc2)C[C@H]2c4cc(c(OC)cc4CCN2C)Oc2c(OC)c(OC)cc4c2[C@@H](C3)N(C)CC4)cc1 [Compound 59] | >5.3 | >2.57
28 | COc1cc2c3cc1Oc1c(OC)c(OC)cc4c1[C@@H](Cc1ccc(C(=O)C5CC5)c(c1)Oc1ccc(cc1)C[C@@H]3N(C)CC2)N(C)CC4 [Compound 61] | >6.85 | >3.33
29 | COc1cc2c3cc1Oc1c(OC)c(OC)cc4c1[C@@H](Cc1ccc(C(=O)NCCOCCO)c(c1)Oc1ccc(cc1)C[C@@H]3N(C)CC2)N(C)CC4 [Compound 62] | >61.35 | >29.78
30 | COc1cc2c3cc1Oc1c(OC)c(OC)cc4c1[C@@H](Cc1ccc(C(=O)OCCOCCO)c(c1)Oc1ccc(cc1)C[C@@H]3N(C)CC2)N(C)CC4 [Compound 65] | >29.2 | >14.17
31 | Berbamine hydrochloride [reference compound] | 2.06 | 1.00
